Patent publication US4957926A, “Method of treating herpesviruses” (priority 1988, dated 1990)

Tested on: Cytomegalovirus (Viral Strain Towne)
Assay: Cytomegalovirus Plaque Reduction Assay
Type: cell-based
Details: CMV; data of FIG. 1, % virus control vs log10 drug (mM)
Excerpt: For testing the N-Bu-DNJ against HSV, the HSV Type II strain HG52 described by Timbury, J. Gen. Virol. 13, 373-376 (1971), and Davis et al., Analyst 110, 605-609 (1985), is useful. For testing against CMV, the prototype CMV ADl69 strain described, for example, by Tyms et al., J. Gen. Virol. 68, 1563-1573 (1987), and in U.S. Pat. No. 4,743,560, is useful. Another useful CMV strain is the Towne strain described by Glazer et al., Ann. Inter. Med. 91, 676-683 (1979).
Human embryo fibroblast cells (HEF) were grown in Eagles minimal essential medium supplemented with 7% fetal calf serum (FCS), 9 mM sodium bicarbonate and 7 mM HEPES buffer. In maintenance medium the supplements were adjusted to 2% FCS, 13 mM sodium bicarbonate and 14 mM HEPES. CMV, strain Towne, and HSV type II, strain […], were used in the following tests. CMV virus stocks were prepared and stored by technique as previously described by Tyms & Williamson, Nature 297, 690-691 […]. Herpes virus stocks were prepared and stored by technique as previously described by Davis et al., Analyst 110, 605-609 (1985). The HEF were human embryonic lung fibroblasts, strain MRC-5, as described by Tyms and Williamson, Nature 297, 690-691 (1982).
For plaque reduction assays, 24-well culture trays were seeded with HEF cells. Confluent monolayers were infected with virus to give initially about 100 plaque-forming-units (p.f.u.) per well. After a one hour absorption period the inocula were replaced by l.5ml of a maintenance medium incorporating 0.5% low gelling temperature agarose, supplemented with various concentrations of test compound. For tests with CMV, infected monolayers were fixed with 5% formalin in phosphate buffered saline (PBS) at 6-8 days post-infection and stained with 0.3% methylene blue after removal of the overlay; whereas, tests with HSV were conducted in the same manner but with the monolayer fixing at 2 days post infection. The mean plaque number was calculated from a multiple series of counts (e.g., duplicate, triplicate or quadruplicate), converted to a percentage of untreated controls and values plotted against the log10 drug concentration. The 50% effective dose (ED50) was determined from best line fits for the curves.
In a similar manner, the Effective Dosage Values (ED50) were determined from the curves of FIG. 1. A least squares fit of the data of FIG. 1 to an equation of the form: y=mx+b gave the following values: […]
From these values, a 50% effective dose (ED50) was calculated to give the following values: […]

Row | SMILES | b (least squares fit y=mx+b) | m (least squares fit y=mx+b)
1 | O[C@H]1[C@H](O)[C@@H](O)CN2CC[C@H](O)[C@H]12 [Castanospermine, castanospermine, reference compound] | 32.9 | -77.08
2 | CCCCN1C[C@H](O)[C@@H](O)[C@H](O)[C@H]1CO [N-Bu-DNJ, Nbutyl deoxynojirimycin] | 31.7 | -75.95
